Results of unrelated studies side by side (data: NIAID ChemDB).

Common to all: cytotoxicity tests; cell line: PBMC; read-out: CC50

Conditions beyond the fields shown may differ between rows. a–b is a range or a potency band. CCn: concentration that lowers growth or viability of the cells by n%.

COC(=O)c1ccc(C(=O)OCc2nc3ccccc3nc2C)cc1 ; method: MTS ; result: >100 µM
O=C(NCCc1cccc(-n2ccnc2)n1)NCc1ccccc1Cl ; result: 50 µM
C/C(=C\CP(=O)(OCOC(=O)OC(C)C)OCOC(=O)OC(C)C)Cn1cc(-c2ccc([N+](=O)[O-])cc2)nn1 ; method: absorbance ; result: 23.5 µg/mL
Cc1nc(CCCCCCC(=O)c2ccccc2)n2nc(NCCCCCCCCCCCCNCc3cn([C@H]4C=C[C@@H](CO)O4)c(=O)[nH]c3=O)ccc12 ; result: 28 µM
O=C(NCCc1ccc2c(n1)NCCC2)Nc1ccc(Cl)c(Cl)c1 ; result: 1.5 µM
c1csc(-c2nnc3c4ccccc4c(N4CCc5ccccc5C4)nn23)c1 ; result: >100 µM
COc1cc2ccnc3c2c(c1OS(=O)(=O)c1ccccc1)N(C)C=C3 ; result: 10.4 µM
COc1ccc(C(=O)OCc2nc3ccccc3nc2C)c(OC)c1OC ; method: MTS ; result: >100 µM
Nc1ncnc2c1ncn2[C@@H]1O[C@@H](CO)CC1(F)F ; result: >100 µM
C#C[C@]1(OCP(=O)(O)O)C[C@@H](n2cnc3c(N)ncnc32)C=C1F ; method: MTT ; result: ≥10 µM
CC(C)C(Cc1ccccc1)NC(=O)C[C@@H]1O[C@@H]1[C@H](Cc1ccccc1)NC(=O)[C@@H](NC(=O)c1cccs1)C(C)(C)S(C)(=O)=O ; result: >10 µM
CC(=O)OC[C@H]1O[C@@H]2Oc3[nH]c(=O)[nH]c(=O)c3S[C@@H]2[C@@H](OC(C)=O)[C@H]1OC(C)=O ; method: MTT ; result: >100 µM
Cc1ccc2nc(Cl)c(/C=C/C(=O)c3cccc4ccccc34)cc2c1 ; method: MTS ; result: >100 µM
CC(C)(C)C(=O)OCOP(=O)(CC[C@H]1O[C@@H](n2ccc(=O)[nH]c2=O)[C@](C)(F)[C@@H]1O)OCOC(=O)C(C)(C)C ; result: >100 µM
CCN1C=Cc2nccc3cc(OC)c(OC)c1c23 ; result: 11.7 µM
Nc1ncnc2c1ncn2[C@H]1C=C(F)[C@@](CO)(OCP(=O)(O)O)C1 ; method: MTT ; result: ≥10 µM
Nc1nc(=O)n([C@H]2O[C@@H](CO)[C@H](O)C2(F)F)cc1Br ; result: >100 µM
CCCCCCCCCCCCCCCC[n+]1ccc2cc(OC)c(OC)c3c2c1C=CN3 ; result: 1.5 µM
Cc1cc(C)cc(N2C(=O)CCC2(CN)c2c(Cl)cccc2Cl)c1 ; method: absorbance ; result: >100 µM
COc1cc(C(=O)OCc2nc3ccccc3nc2C)cc(OC)c1OC ; method: MTS ; result: >100 µM
COc1cc(O)c(CC=C(C)C)c(O)c1C(=O)/C=C/c1ccc(O)cc1 ; method: trypan blue ; result: >121.8 µM
C#Cc1cnc(C(=O)c2ccccc2)nc1C(=O)c1ccccc1 ; result: ≥100 µM
Cc1cn([C@H]2C[C@H](N=[N+]=[N-])[C@@H](COC(=O)OC[C@@H]3O[C@H]3CO)O2)c(=O)[nH]c1=O ; result: >20 µM
O=c1[nH]c(=O)n([C@@H]2O[C@@H](CO)[C@H](O)C2(F)F)cc1Cl ; result: >100 µM
O=c1ccn([C@@H]2O[C@H](CO)C(F)(F)C2(F)F)c(=O)[nH]1 ; result: >100 µM
CCC[n+]1ccc2cc(OC)c(OC)c3c2c1C=CN3 ; result: 1.4 µM
Nc1ccc2c(c1)CN(c1nn3c(C4CC4)nnc3c3ccccc13)CC2 ; result: 22.1 µM
Cc1cn([C@@H]2O[C@H](COP(=O)(N[C@@H](C)C(=O)OC(C)C)Oc3ccccc3)C(F)(F)C2(F)F)c(=O)[nH]c1=O ; result: >100 µM
Nc1ccn([C@@H]2O[C@@H](CO)CC2(F)F)c(=O)n1 ; result: >100 µM
O=c1[nH]cnc2c1ncn2[C@@H]1O[C@@H](CO)[C@H](O)C1(F)F ; result: >100 µM
COc1ccc(C(=O)N2CCCC2(C#N)c2ccccc2)cc1[N+](=O)[O-] ; method: absorbance ; result: >100 µM
O=c1[nH]c(=O)n([C@H]2O[C@@H](CO)[C@H](O)C2(F)F)cc1Br ; result: >100 µM
O=c1[nH]c(=O)n([C@H]2C[C@H](O)[C@@H](CO)O2)cc1C12B3B4B5B6B(B3B1B42)B1B5C61 ; result: >100 µM
Cc1ccc2nc(Cl)c(/C=C/C(=O)c3c4ccccc4cc4ccccc34)cc2c1 ; method: MTS ; result: 83 µM
Cc1nc(CCCCCCC(=O)c2ccccc2)n2nc(NCCCCCCCCN)ccc12 ; result: >10 µM
C#Cc1c[nH]c(=O)[nH]c1=O ; result: >100 µM
CCCCCCCc1ccc(-c2cn(C/C(C)=C/CP(=O)(OCOC(=O)OC(C)C)OCOC(=O)OC(C)C)nn2)cc1 ; method: absorbance ; result: 9.2 µM
O=c1[nH]c(=O)n([C@H]2O[C@@H](CO)[C@H](O)C2(F)F)cc1I ; result: >100 µM
O=[N+]([O-])c1ccc2c(c1)CN(c1nn3c(C(F)F)nnc3c3ccccc13)CC2 ; result: 23.8–29.4 µM
CC(C)C(Cc1ccccc1)NC(=O)C[C@@H]1O[C@@H]1[C@H](Cc1ccccc1)NC(=O)[C@@H](NC(=O)N(C)C1CC1)C(C)(C)S(C)(=O)=O ; result: >10 µM
COc1ccc2nc(Cl)c(/C=C/C(=O)c3ccc4c(c3)OCCO4)cc2c1 ; method: MTS ; result: 14.2 µM
O=C(NCCc1ccc2c(n1)NCCC2)Nc1ccc(Cl)cc1Cl ; result: 25 µM
CN1CCCC(CNC(=O)c2nc(-c3ccccn3)[nH]c(=O)c2O)C1 ; method: absorbance ; result: >50 µM
Cc1cn([C@H]2C[C@H](N=[N+]=[N-])[C@@H](CO)O2)c(=O)[nH]c1=O ; method: MTS ; result: >1 µM
CC(C)C(Cc1ccccc1)NC(=O)C[C@@H]1O[C@@H]1[C@H](Cc1ccccc1)NC(=O)[C@@H](NC(=O)OC1CCCC1)C(C)(C)S(C)(=O)=O ; result: >10 µM
Cc1nc(CCCCCCC(=O)c2ccccc2)n2nc(NCCCCCCCCNCc3cn([C@H]4C=C[C@@H](CO)O4)c(=O)[nH]c3=O)ccc12 ; result: >10 µM
Cc1cn([C@@H]2O[C@@H](CO)CC2(F)F)c(=O)[nH]c1=O ; result: >100 µM
CCCCCCCCCCCCN1C=Cc2cc(OC)c(OC)c3c2c1cc[n+]3CCCCCCCCCCCC ; result: <1 µM
O=c1ccn([C@H]2O[C@@H](CO)[C@H](O)C2(F)F)c(=O)[nH]1 ; result: >100 µM
Nc1cc2c(c(N3CCOCC3)c1)CCN(c1nn3c(C4CC4)nnc3c3ccccc13)C2 ; result: 13.4 µM
COc1ccc2nc(Cl)c(/C=C/C(=O)c3ccc(Cl)s3)cc2c1 ; method: MTS ; result: 20.8 µM
Cn1c2c(c(=O)n(C)c1=O)S[C@H]1[C@@H](O2)O[C@H](CO)[C@@H](O)[C@@H]1O ; method: MTT ; result: >100 µM
COc1cc(OC)cc(C(=O)OCc2nc3ccccc3nc2C)c1 ; method: MTS ; result: >100 µM
CCCCCCc1ccc(-c2cn(C/C(C)=C/CP(=O)(OCOC(=O)OC(C)C)OCOC(=O)OC(C)C)nn2)cc1 ; method: absorbance ; result: 23.7 µM
CC(C)OC(=O)[C@H](C)NP(=O)(OC[C@H]1O[C@@H](n2cnc3c(N)ncnc32)C(F)(F)C1(F)F)Oc1ccccc1 ; result: 27 µM
O=C(NCCc1ccc2c(n1)NCCC2)Nc1ccc(SC(F)(F)F)cc1 ; result: 23 µM
CC(C)(C)C(=O)OCOP(=O)(CC[C@H]1O[C@@H](n2ccc(N)nc2=O)[C@](C)(F)[C@@H]1O)OCOC(=O)C(C)(C)C ; result: >100 µM
CC(C)OC(=O)[C@H](C)NP(=O)(OC[C@H]1O[C@@H](n2cnc3c(=O)[nH]c(N)nc32)C(F)(F)C1(F)F)Oc1ccccc1 ; result: >100 µM
Cc1nc(CCCCCCC(=O)c2ccccc2)n2nc(Cl)ccc12 ; result: >10 µM
CC(C)CCC[C@@H](C)[C@H]1CCC2C3CCC4C[C@@H](O[C@@H]5O[C@H](COS(=O)(=O)[O-])[C@@H](O[C@H]6O[C@H](COS(=O)(=O)[O-])[C@@H](O[C@H]7O[C@H](COS(=O)(=O)[O-])[C@@H](O[C@H]8O[C@H](COS(=O)(=O)[O-])[C@@H](OS(=O)(=O)[O-])[C@H](OS(=O)(=O)[O-])[C@H]8OS(=O)(=O)[O-])[C@H](OS(=O)(=O)[O-])[C@H]7OS(=O)(=O)[O-])[C@H](OS(=O)(=O)[O-])[C@H]6OS(=O)(=O)[O-])[C@H](OS(=O)(=O)[O-])[C@H]5OS(=O)(=O)[O-])CC[C@]4(C)C3CC[C@@]21C ; result: 650 µg/mL
Cn1c2c(c(=O)n(C)c1=O)S[C@H]1[C@@H](O2)O[C@H](COc2ccccc2)[C@@H](OCc2ccccc2)[C@@H]1OCc1ccccc1 ; method: MTT ; result: >100 µM
Cc1nc(CCCCCCC(=O)c2ccccc2)n2nc(NCCCCCCCCCCNCc3cn([C@H]4C=C[C@@H](CO)O4)c(=O)[nH]c3=O)ccc12 ; result: 18 µM
Nc1ncnc2c1ncn2[C@@H]1O[C@H](CO)C(F)(F)C1(F)F ; result: >100 µM
O=C(O)CN(CCCN(CCN(CC(=O)O)CC(=O)O)Cc1cnc2c(O)cccc2c1)CC(=O)O ; method: MTT ; result: >50 µM
O=c1[nH]c(=O)n([C@H]2O[C@@H](CO)[C@H](O)C2(F)F)cc1Cl ; result: >100 µM
CCCCCCCC(=O)NCc1cn(C/C(C)=C/CP(=O)(OCOC(=O)OC(C)C)OCOC(=O)OC(C)C)nn1 ; method: absorbance ; result: 51.5 µM
Cc1cn([C@H]2O[C@@H](CO)CC2(F)F)c(=O)[nH]c1=O ; result: >100 µM
CC(=O)O[C@H]1[C@@H](OC(C)=O)[C@@H](CO[Si](c2ccccc2)(c2ccccc2)C(C)(C)C)O[C@@H](O[C@H]2[C@H](OC(C)=O)[C@H]3Sc4c(n(C)c(=O)n(C)c4=O)O[C@H]3O[C@@H]2CO[Si](c2ccccc2)(c2ccccc2)C(C)(C)C)[C@@H]1OC(C)=O ; method: MTT ; result: 100 µM
CC(C)C(Cc1ccccc1)NC(=O)C[C@@H]1O[C@@H]1[C@H](Cc1ccccc1)NC(=O)[C@@H](NC(=O)Cc1ccoc1)C(C)(C)S(C)(=O)=O ; result: >10 µM
Cc1ccc(NC(C#N)c2ccccc2OCc2ccccc2)cc1 ; method: absorbance ; result: 15.6 µM
CN(CCc1ccc2c(n1)NCCC2)C(=O)Nc1cccc(F)c1 ; result: 50 µM
CCCCN1C=Cc2nccc3cc(OC)c(OC)c1c23 ; result: 3.2 µM
O=C(NCCc1ccc2c(n1)NCCC2)Nc1ccc(Cl)c(C(F)(F)F)c1 ; result: 3.7 µM
Nc1ccc2c(c1)CN(c1nn3c(C(F)F)nnc3c3ccccc13)CC2 ; result: >100 µM
CC(C)C(Cc1ccccc1)NC(=O)C[C@@H]1O[C@@H]1[C@H](Cc1ccccc1)NC(=O)[C@@H](NC(=O)c1cccnc1)C(C)(C)S(C)(=O)=O ; result: >10 µM
N#CC1C=Cc2ccccc2N1C(=O)c1ccc(Cl)cc1 ; result: >10 µM
Cc1nc(CCCCCCC(=O)c2ccccc2)n2nc(NCCCCCCCCCCN)ccc12 ; result: >10 µM